Here are results for six molecules from publication PMC11813584, “An odorant-binding protein functions in fire ant social immunity interfacing with innate immunity” (Open Biology, 2025).

The series relates to S. invicta workers. Briefly: GC-MS analysis of cuticular chemicals of B. bassiana-killed versus freeze-killed workers. Also on record: species or system Solenopsis invicta. The note with it: for change on ant cuticle after infection: B. bassiana-killed versus freeze-killed workers; for concentration in B. bassiana-killed ants compared to freeze-killed ants (in words): fatty acids quantified by GC-MS.

Take 3-octenol: the “change on ant cuticle after infection” value is recorded as “increases”. Consider `CC(=O)C(C)=O` [2,3 butanedione], for which the “change on ant cuticle after infection” value is on record as “decreases”. As to `CC(=O)C(C)O` (stereo not drawn) [acetoin], the “change on ant cuticle after infection” value is on record as “decreases”. For `CCCCC/C=C\C/C=C\CCCCCCCC(=O)O` [linoleic acid, cis,cis-9,12-linoleic acid], the “change on ant cuticle after infection” value is recorded as “no change” and the “concentration in B. bassiana-killed ants compared to freeze-killed ants (in words)” value is “did not change”. `CCCCCCCC/C=C\CCCCCCCC(=O)O` [oleic acid]: the “change on ant cuticle after infection” value was “no change” and the “concentration in B. bassiana-killed ants compared to freeze-killed ants (in words)” value is given as “did not change”. As to `CCCCCCCC/C=C/CCCCCCCCCC(=O)O` [trans-11-eicosenoic acid], the “change on ant cuticle after infection” value is “decreases” and the “concentration in B. bassiana-killed ants compared to freeze-killed ants (in words)” value was “significantly higher in freeze-killed ants”.
